Test results taken from US20260102474A1.

Target: Original version (SARS-COV-2) (UniProt P0DTC2)
Experiment: flow

REGN 10933
EC50: 0.18 µg/mL
